Anti-infective test results gathered from many reports (values: NIAID ChemDB through PubChem).

Shared fields: whole-cell or culture tests; organism: Cryptococcus neoformans

ECn is the concentration giving n% inhibition of infection, replication or growth.

smiles,endpoint,read by,strain or isolate,result
CCc1nc(N)nc(N)c1-c1ccc(Cl)cc1,MIC50,-,-,0.002–2 µg/mL
CO[C@@H]1[C@@H](O)[C@H](O[C@@H]2[C@@H](O)[C@H](O[C@H]3[C@H](O)[C@@H](O)[C@H](O[C@H]4[C@H](O[C@H]5CC[C@]6(C)C7=C[C@H](O)[C@]89C(=O)O[C@@](C)(CCC=C(C)C)[C@@]8(O)CC[C@@]9(C)[C@@H]7CC[C@H]6C5(C)C)OC[C@@H](O[C@@H]5O[C@H](CO)[C@@H](O)[C@H](O[C@@H]6O[C@H](CO)[C@@H](O)[C@H](OC)[C@H]6O)[C@H]5O)[C@@H]4O)O[C@@H]3C)O[C@H](CO)[C@H]2O)O[C@H](CO)[C@H]1O,MIC80,-,ATCC32609,0.69 µM
Cc1nn([C@H](C)[C@](O)(Cn2cncn2)c2ccc(F)cc2F)c2ccc(F)cc12,MIC90,-,ATCC 4065,1 µg/mL
Nc1ccc(S(=O)(=O)c2ccc(N)cc2)cc1,MIC50,-,-,0.008–8 µg/mL
CC/C=C/C(CC)CCC[C@@]1(CC)C[C@H](CC)[C@H](CC(=O)O)OO1,EC50,-,-,2.5 µg/mL
CCC(C)n1ncn(-c2ccc(N3CCN(c4ccc(OC[C@H]5CO[C@](Cn6cncn6)(c6ccc(Cl)cc6Cl)O5)cc4)CC3)cc2)c1=O,MIC50,-,-,0.03–0.06 µg/mL
Cc1ncc([N+](=O)[O-])n1CCO,MIC50,-,-,0.12–128 µg/mL
COC(=O)Nc1nc2ccccc2[nH]1,EC50,-,IU8698,<2 µg/mL
C[C@@H](c1ncncc1F)[C@](O)(Cn1cncn1)c1ccc(F)cc1F,MIC90,-,-,0.06–0.25 µg/mL
C[C@@H]1O[C@@H](Oc2c(-c3ccc(O)c(O)c3)oc3cc(O)cc(O)c3c2=O)[C@H](O)[C@H](O)[C@H]1O,MIC,broth dilution,ATCC 208821,100 µg/mL
COc1ccc(NS(=O)(=O)c2ccc(N)cc2)nn1,MIC50,-,-,0.62–640 µg/mL
C[C@H]1[C@H](O)[C@@H](C)/C=C/C=C/C=C/C=C/C=C/C=C/C=C/[C@H](O[C@@H]2O[C@H](C)[C@@H](O)[C@H](N)[C@@H]2O)C[C@@H]2O[C@](O)(C[C@@H](O)C[C@@H](O)CC[C@H](O)[C@@H](O)C[C@@H](O)CC(=O)O[C@H]1C)C[C@H](O)[C@H]2C(=O)O,MIC50,-,-,0.25–1 µg/mL
COC(=O)[C@H]1[C@@H]2C[C@@H](O[C@@H]3O[C@H](C)[C@@H](O)[C@H](N)[C@@H]3O)/C=C/C=C/C=C/C=C/C=C/C=C/C=C/[C@H](C)[C@@H](O)[C@H](C)[C@H](C)OC(=O)C[C@H](O)C[C@H](O)[C@@H](O)CC[C@H](O)C[C@H](O)C[C@](O)(C[C@@H]1O)O2,MIC80,-,ATCC32609,0.27 µM
CCCCCOc1ccc(-c2cc(-c3ccc(C(=O)N[C@H]4C[C@@H](O)[C@@H](O)NC(=O)[C@@H]5[C@@H](O)[C@@H](C)CN5C(=O)[C@H]([C@H](O)CC(N)=O)NC(=O)[C@H]([C@H](O)[C@@H](O)c5ccc(O)c(OS(=O)(=O)O)c5)NC(=O)[C@@H]5C[C@@H](O)CN5C(=O)[C@H]([C@@H](C)O)NC4=O)cc3)no2)cc1,MIC50,-,-,>8 µg/mL
COC(=O)Nc1nc2ccc(Sc3ccccc3)cc2[nH]1,EC90,-,IU4,0.028 µg/mL
CC1(C)C=C2C3CCC4[C@@]5(C)CCC(O)C(C)(C)C5CC[C@@]4(C)[C@]3(C)CC[C@@]2(C(=O)O)CC1,MLC,broth dilution,ATCC 208821,>200 µg/mL
C=C(C)CCC[C@]1(C)OC(=O)[C@]23[C@@H](O)C=C4[C@@H](CC[C@H]5C(C)(C)[C@@H](O[C@@H]6OC[C@@H](O[C@@H]7O[C@H](CO)[C@@H](O)[C@H](O[C@@H]8O[C@H](CO)[C@@H](O)[C@H](OC)[C@H]8O)[C@H]7O)[C@H](O)[C@H]6O[C@@H]6O[C@H](C)[C@@H](O[C@@H]7O[C@H](CO)[C@@H](O)[C@H](O[C@@H]8O[C@H](CO)[C@@H](O)[C@H](OC)[C@H]8O)[C@H]7O)[C@H](O)[C@H]6O)CC[C@]45C)[C@]2(C)CC[C@@H]31,MIC80,-,ATCC32609,0.7 µM
CCCCCCCCCCCCCCCCCCCO,MLC,broth dilution,ATCC 208821,200 µg/mL
CN(C/C=C/C#CC(C)(C)C)Cc1cccc2ccccc12,MIC80,broth dilution,ATCC,13.7 µM
CO[C@@H]1[C@@H](O)[C@H](O[C@@H]2[C@@H](O)[C@H](O[C@H]3[C@H](O)[C@@H](O)[C@H](O[C@H]4[C@H](O[C@H]5CC[C@]6(C)C7=C[C@H](O)[C@]89C(=O)O[C@@](C)(CCC=C(C)C)[C@H]8CC[C@@]9(C)[C@@H]7CC[C@H]6C5(C)C)OC[C@@H](O[C@@H]5O[C@H](CO)[C@@H](O)[C@H](O[C@@H]6O[C@H](CO)[C@@H](O)[C@H](OC)[C@H]6O)[C@H]5O)[C@@H]4O)O[C@@H]3C)O[C@H](CO)[C@H]2O)O[C@H](CO)[C@H]1O,MIC80,-,ATCC32609,0.7 µM
CCN(CC)CCCC(C)Nc1c2ccc(Cl)cc2nc2ccc(OC)cc12,MIC50,-,-,0.21–16 µg/mL
O=C1N2C3C(=COC=CC3O)CC23SSC12CC1=COC=CC(O)C1N2C3=O,EC50,-,E138,1 µg/mL
CCCCNC(=O)n1c(NC(=O)OC)nc2ccccc21,EC50,-,IU8698,<3.8 µg/mL
CN(C/C=C/C#CC(C)(C)C)Cc1cccc2ccccc12,MIC90,-,-,1 µg/mL
CCc1nn([C@H](C)[C@](O)(Cn2cncn2)c2ccc(F)cc2F)c2ccc(F)cc12,MIC90,-,ATCC 4065,0.25 µg/mL
OC(Cn1cncn1)(Cn1cncn1)c1ccc(F)cc1F,MIC80,-,ATCC32609,0.82 µM
N=C(N)c1ccc(OCCCCCOc2ccc(C(=N)N)cc2)cc1,MIC50,-,-,0.031–32 µg/mL
CC1(C)C=C2C3CCC4[C@@]5(C)CCC(=O)C(C)(C)C5CC[C@@]4(C)[C@]3(C)CC[C@@]2(C(=O)O)CC1,MLC,broth dilution,ATCC 208821,>200 µg/mL
CC(C)(C)[C@](O)(COc1ccc(Cl)cc1)Cn1cncn1,MIC50,-,-,<0.01 µg/mL

Repeating the final 2 entries:

CC1(C)C=C2C3CCC4[C@@]5(C)CCC(=O)C(C)(C)C5CC[C@@]4(C)[C@]3(C)CC[C@@]2(C(=O)O)CC1 ; endpoint: MLC ; read by: broth dilution ; strain or isolate: ATCC 208821 ; result: >200 µg/mL
CC(C)(C)[C@](O)(COc1ccc(Cl)cc1)Cn1cncn1 ; endpoint: MIC50 ; result: <0.01 µg/mL

Lines come from different laboratories, so protocols vary. Blank or dashed fields: not listed here. a–b is a range or a potency band. A number after MIC or MFC names an inhibition level or a share of isolates.